Compound potency records, mixed from different reports. Data source: NIAID ChemDB in PubChem.

All rows: target-level tests; agent: HIV-1; protein: Reverse transcriptase

Two numbers with a dash give a range or band. Blank or dashed fields: not listed here. Neighbouring rows are from separate reports. ICn: concentration for n% inhibition.

structure,read-out,read by,changes,strain or isolate,result
CCN1c2ncc(CCOc3ccc(-c4cccc(CC(=O)O)c4)cc3)cc2C(=O)N(C)c2cccnc21,IC50,nucleotide incorporation / radiometric,,IIIB,<0.05 µM
C/C(=C\c1ccc(NC(=O)CSc2nnnn2-c2ccc(C3CC3)cc2Cl)c(Cl)c1)C(=O)O,IC50,PicoGreen / fluorescence,RT-K103 Y181C,,<1 µM
CCN1c2ncc(CCOc3ccc(-c4ccc(CC(=O)O)cc4)cc3)cc2C(=O)N(C)c2cccnc21,IC50,nucleotide incorporation / radiometric,RT-K103N Y181C,IIIB,0.05–0.1 µM
CCN1c2ncc(CCOc3ccc(C(=O)O)c4c3CCN(C(=O)N(C)C)C4)cc2C(=O)N(C)c2cccnc21,IC50,nucleotide incorporation / radiometric,,WT,<0.1 µM
CCc1ccc(-n2c(Br)nnc2SCC(=O)Nc2ccc(S(N)(=O)=O)cc2Cl)c2c1CCCC2,IC50,nucleotide incorporation / radiometric,,,<0.05 µM
CCN1c2ncc(CCOc3ccc(CC(C)C(=O)O)c4ccccc34)cc2C(=O)N(C)c2ccc(Cl)nc21,IC50,nucleotide incorporation / radiometric,RT-Y188L,,>1 µM
CC(C)(C#Cc1ccc(NC(=O)CSc2nnnn2-c2cc(C3CC3)ccc2Cl)c(Cl)c1)C(=O)O,IC50,PicoGreen / fluorescence,,WT,<1 µM
CCN1c2ncc(CCOc3ccc(C(=O)N(C)Cc4ccc(C(=O)O)cc4)cc3C)cc2C(=O)N(C)c2cccnc21,IC50,nucleotide incorporation / radiometric,,IIIB,<0.05 µM
CCN1c2ncc(CCOc3ccc(C(C)C(=O)O)c4ccccc34)cc2C(=O)N(C)c2cccnc21,IC50,nucleotide incorporation / radiometric,RT-K103N Y181C,,0.1–1 µM
Nc1ccc2c(c1)CN(c1nn3c(-c4cccs4)nnc3c3ccccc13)CC2,IC90,RT activity / fluorescence,,98US_MSC5016,8.51 µM
CCc1ccc(-n2c(CF)nnc2SCC(=O)Nc2ccc(S(=O)(=O)NC)cc2Cl)c2ccccc12,IC50,nucleotide incorporation / radiometric,RT-Y188L,,>0.1 µM
CC(=O)NC(C)(C)C#Cc1ccc(NC(=O)CSc2nnnn2-c2cc(C(F)(F)F)ccc2Cl)c(Cl)c1,IC50,PicoGreen / fluorescence,,WT,<1 µM
Cc1nnc2c3ccccc3c(N3CCc4c(F)cccc4C3)nn12,IC50,RT activity / fluorescence,,KER2008,2.51 µM
CCNC(=O)c1ccc(NC(=O)CSc2nnnn2-c2ccc(C)cc2Cl)c(Cl)c1,IC50,PicoGreen / fluorescence,,WT,<1 µM
CCN1c2ncc(CCOc3ccc(-c4cnccc4C)cc3C)cc2C(=O)N(C)c2cccnc21,IC50,nucleotide incorporation / radiometric,,IIIB,<0.05 µM
CCN1c2ncc(CCOc3ccc(CC(=O)O)c4ccccc34)cc2C(=O)N(C)c2ccc(C)nc21,IC50,nucleotide incorporation / radiometric,,WT,<0.1 µM
CC(C)(C)c1ccc(-n2nnnc2SCC(=O)Nc2ccc(OCC(=O)N3CCOCC3)cc2Cl)c(Cl)c1,IC50,PicoGreen / fluorescence,RT-K103 Y181C,,<1 µM
CCN1c2ncc(CCOc3ccc(C(=O)N=c4ccn(O)cc4)cc3C)cc2C(=O)N(C)c2cccnc21,IC50,nucleotide incorporation / radiometric,RT-K103N Y181C,IIIB,<0.05 µM
CC(C)(C)c1ccc(-n2nnnc2SCC(=O)Nc2ccc(NC(=O)CCc3ccccc3)cc2Cl)c(Cl)c1,IC50,PicoGreen / fluorescence,RT-K103 Y181C,,<1 µM
CC(=O)Nc1ccc2c(c1)CN(c1nn3c(C)nnc3c3ccccc13)CC2,IC50,RT activity / fluorescence,,KER2008,7.36 µM
CCN1c2ncc(CCOc3ccc(C(=O)NS(=O)(=O)c4ccccc4)cc3C)cc2C(=O)N(C)c2cccnc21,IC50,nucleotide incorporation / radiometric,,IIIB,<0.05 µM
O=C(CSc1nnc(Br)n1-c1ccc(C2CC2)cc1C(F)(F)F)Nc1ccc(C(=O)O)cc1Cl,IC50,nucleotide incorporation / radiometric,,,<0.05 µM
O=C(CSc1nnnn1-c1ccc(C2CC2)cc1Cl)Nc1ccc(C#CC2(CNCCN3CCCC3)CC2)cc1Cl,IC50,PicoGreen / fluorescence,RT-K103 Y181C,,<1 µM
CCc1cc(CCc2nc3ccccc3o2)c(=O)[nH]c1C,IC50,nucleotide incorporation,RT-Y181H,,1.24 µM
CC(C)(C)c1ccc(-n2nnnc2SCC(=O)Nc2ccc(NC(=O)Cc3ccccc3O)cc2Cl)c(Cl)c1,IC50,PicoGreen / fluorescence,,WT,<1 µM
c1ccc2c(c1)CCN(c1nn3c(C4CC4)nnc3c3ccccc13)C2,IC90,RT activity / fluorescence,,98US_MSC5016,4.04 µM
CCc1ccc(-n2c(CF)nnc2SCC(=O)Nc2ccc(C(=O)O)cc2Cl)c2ccccc12,IC50,nucleotide incorporation / radiometric,RT-Y188L,,>0.1 µM
Cc1cc(-c2ccc(NC(=O)CSc3nnnn3-c3ccc(C(C)(C)C)cc3Cl)c(Cl)c2)ccc1OCC(=O)O,IC50,PicoGreen / fluorescence,RT-K103 Y181C,,<1 µM
CCN1c2ncc(CCOc3ccc(S(=O)(=O)NCC(=O)O)cc3C)cc2C(=O)N(C)c2cccnc21,IC50,nucleotide incorporation / radiometric,,IIIB,<0.05 µM
CN(C)c1ccc(CNC(=O)C(C)(C)C#Cc2ccc(NC(=O)CSc3nnnn3-c3ccc(C4CC4)cc3Cl)c(Cl)c2)cc1,IC50,PicoGreen / fluorescence,,WT,<1 µM
CCN1c2ncc(CCOc3ccc(S(=O)(=O)NC(C)=O)c4ccccc34)cc2C(=O)N(C)c2cccnc21,IC50,nucleotide incorporation / radiometric,,WT,<0.1 µM
CC(C)(O)C#Cc1ccc(NC(=O)CSc2nnnn2-c2ccc(C(C)(C)C)cc2Cl)c(Cl)c1,IC50,PicoGreen / fluorescence,RT-K103 Y181C,,<1 µM
CCc1ccc(-n2c(CF)nnc2SCC(=O)Nc2ccc(S(N)(=O)=O)cc2Cl)c2c1CCCC2,IC50,nucleotide incorporation / radiometric,RT-Y188L,,>0.1 µM
CCN1c2ncc(CCOc3ccc(/C=C(\C)C(=O)O)c4ccccc34)cc2C(=O)N(C)c2cccnc21,IC50,nucleotide incorporation / radiometric,RT-K103N Y181C,,0.1–1 µM
CC(C)(C)c1ccc(-n2nnnc2SCC(=O)Nc2ccc(NC(=O)Cc3ccccc3Cl)cc2Cl)c(Cl)c1,IC50,PicoGreen / fluorescence,RT-K103 Y181C,,<1 µM
CCN1c2ncc(CCOc3ccc(C(=O)NC(C)(C)C(=O)O)cc3C)cc2C(=O)N(C)c2cccnc21,IC50,nucleotide incorporation / radiometric,RT-K103N Y181C,IIIB,0.05–0.1 µM

For reference, 4 entries again:

structure	read-out	read by	changes	strain or isolate	result
CN(C)c1ccc(CNC(=O)C(C)(C)C#Cc2ccc(NC(=O)CSc3nnnn3-c3ccc(C4CC4)cc3Cl)c(Cl)c2)cc1	IC50	PicoGreen / fluorescence		WT	<1 µM
CC(C)(C)c1ccc(-n2nnnc2SCC(=O)Nc2ccc(NC(=O)CCc3ccccc3)cc2Cl)c(Cl)c1	IC50	PicoGreen / fluorescence	RT-K103 Y181C		<1 µM
CCc1ccc(-n2c(CF)nnc2SCC(=O)Nc2ccc(S(=O)(=O)NC)cc2Cl)c2ccccc12	IC50	nucleotide incorporation / radiometric	RT-Y188L		>0.1 µM
CCc1ccc(-n2c(CF)nnc2SCC(=O)Nc2ccc(C(=O)O)cc2Cl)c2ccccc12	IC50	nucleotide incorporation / radiometric	RT-Y188L		>0.1 µM